Source: patent US10273305B2, “Bispecific CXCR4-CD4 polypeptides with potent anti-HIV activity” (Ablynx N.V., priority 2015, dated 2019)

Tested on: AMD3100 resistant virus
Format: cell-based, HIV-1
Conditions: MT-4 cells

c1cc(CN2CCCNCCNCCCNCC2)ccc1CN1CCCNCCNCCCNCC1 [AMD3100, plerixafor]
loss in potency on AMD3100 resistant virus: ~100 fold
